Results of unrelated studies side by side (data: NIAID ChemDB).

Shared fields: whole-cell or culture tests; organism: Mycobacterium avium complex; read-out: MIC90

a–b is a range or a potency band. MIC50, MIC90 and the like: level of inhibition, or share of isolates inhibited. Conditions beyond the fields shown may differ between rows. Blank or dashed fields: not listed here.

smiles,strain or isolate,value
C[C@@H]1CN(c2c(F)c(N)c3c(=O)c(C(=O)O)cn(C4CC4)c3c2F)C[C@H](C)N1,16 isolates,6.25 µg/mL
CN1CCCC1CCN=c1cc2n(-c3ccc(Cl)cc3)c3ccccc3nc-2cc1Nc1ccccc1,10 srtains,1.85 µg/mL
CCN1CCN(c2cc3c(cc2F)c(=O)c(C(=O)O)cn3C(C)(C)C)CC1,14 strains,4 µg/mL
CNC1CCCN(c2c(F)cc3c(=O)c(C(=O)O)cn(C4CC4)c3c2OC)C1,16 isolates,25 µg/mL
CC(C)N=c1cc2n(-c3ccc(Cl)cc3)c3ccccc3nc-2cc1Nc1ccc(Cl)cc1,20 strains,<0.125 µg/mL
CO[C@H]1/C=C/O[C@@]2(C)Oc3c(C)c(O)c4c(O)c(c(/C=N/N5CCN(C6CCCC6)CC5)c(O)c4c3C2=O)NC(=O)/C(C)=C\C=C\[C@H](C)[C@H](O)[C@@H](C)[C@@H](O)[C@@H](C)[C@H](OC(C)=O)[C@@H]1C,,0.81 µg/mL
CCOc1c(N2CCC(C(C)(C)N)C2)c(F)cc2c(=O)c(C(=O)O)cn(C3CC3)c12,,8 µg/mL
CCn1cc(C(=O)O)c(=O)c2cc(F)c(N3CCNCC3)cc21,63 isolates,>16 µg/mL
Clc1ccc(Nc2cc3nc4ccccc4n(-c4ccc(Cl)cc4)c-3cc2=NCCCN2CCCC2)cc1,10 srtains,0.83 µg/mL
CCn1cc(C(=O)O)c(=O)c2cc(F)c(N3CCNCC3)cc21,,>16 µg/mL
CCN=c1cc2n(-c3ccc(Cl)cc3)c3ccccc3nc-2cc1Nc1ccc(Cl)cc1,,0.12 µg/mL
O=C(O)c1cn(C2CC2)c2c(F)c(N3CCS(=O)(=O)CC3)c(F)cc2c1=O,,4 µg/mL
C[C@@H]1CN(c2c(F)c(N)c3c(=O)c(C(=O)O)cn(C4CC4)c3c2F)C[C@H](C)N1,20 strains,1.56 µg/mL
CC[C@@H](CO)NCCN[C@@H](CC)CO,,3.8 µg/mL
CC(C)N1CCN(c2nc3c(cc2F)c(=O)c(C(=O)O)cn3C2CC2)CC1,14 strains,16 µg/mL
O=C(O)c1cn(C2CC2)c2c(F)c(N3CC4CC3CN4)c(F)cc2c1=O,,8 µg/mL
NC1CCN(c2nc3c(cc2F)c(=O)c(C(=O)O)cn3-c2ccc(F)cc2F)C1,16 isolates,>100 µg/mL
CN1CC2CCC1CN2c1c(F)cc2c(=O)c(C(=O)O)cn(C3CC3)c2c1F,,8 µg/mL
Cn1nnnc1SCC1=C(C(=O)O)N2C(=O)[C@@H](NC(=O)[C@H](O)c3ccccc3)[C@H]2SC1,,54.7 µg/mL
O=C(O)c1cn(C2CC2)c2c(F)c(N3CCC(n4ccnc4)C3)c(F)cc2c1=O,,16 µg/mL
NC(=O)c1cnccn1,20 strains,>1600 µg/mL
C[C@@H]1CN(c2c(F)c(N)c3c(=O)c(C(=O)O)cn(C4CC4)c3c2F)C[C@H](C)N1,,4 µg/mL
CC(C)N=c1cc2n(-c3ccc(Cl)cc3)c3ccccc3nc-2cc1Nc1ccc(Cl)cc1,32 isolates,2 µg/mL
CCCCN1CCN(c2cc3c(cc2F)c(=O)c(C(=O)O)cn3C2CC2)CC1,14 strains,8 µg/mL
CC(C)N=c1cc2n(-c3ccccc3)c3ccccc3nc-2cc1Nc1ccc(Cl)cc1,,0.17 µg/mL
CCC1CN(c2cc3c(cc2F)c(=O)c(C(=O)O)cn3C(C)(C)C)CCN1,14 strains,4 µg/mL
NNC(=O)c1ccncc1,20 strains,>1.6 µg/mL
CO[C@H]1/C=C/O[C@@]2(C)Oc3c(C)c(O)c4c(=O)c(c5oc6cc(N7CCN(CC(C)C)CC7)cc(=O)c6nc5c4c3=C2O)NC(=O)/C(C)=C\C=C\[C@H](C)[C@H](O)[C@@H](C)[C@@H](O)[C@@H](C)[C@H](OC(C)=O)[C@@H]1C,20 strains,0.07–0.15 µg/mL
CCN(CC)CC1CCN(c2c(F)cc3c(=O)c(C(=O)O)cn(C4CC4)c3c2F)C1,,8 µg/mL
NCC[C@H](O)C(=O)N[C@@H]1C[C@H](N)[C@@H](O[C@H]2O[C@H](CN)[C@@H](O)[C@H](O)[C@H]2O)[C@H](O)[C@H]1O[C@H]1O[C@H](CO)[C@@H](O)[C@H](N)[C@H]1O,20 strains,8 µg/mL
NC[C@H]1O[C@H](O[C@H]2[C@H](O)[C@@H](O[C@H]3O[C@H](CO)[C@@H](O)[C@H](N)[C@H]3O)[C@H](N)C[C@@H]2N)[C@H](O)[C@@H](O)[C@@H]1O,,5.45 µg/mL
CC1COc2c(C3(N)CC3)c(F)cc3c(=O)c(C(=O)O)cn1c23,16 isolates,>100 µg/mL
CCNCC1CCN(c2c(F)cc3c(=O)c(C(=O)O)cn(CC)c3c2F)C1,,25.3 µg/mL
CCCCOP(=O)(OCCCC)OCCCC,32 isolates,>128 µg/mL
CN1CCN(c2c(F)cc3c(=O)c(C(=O)O)cn(CCF)c3c2F)CC1,16 isolates,100 µg/mL
CC[C@H](C)N1CCN(c2cc(=O)c3nc4c(oc3c2)c2c(=O)c3c(O)c(C)c5c(c34)=C(O)[C@@](C)(O/C=C/[C@H](OC)[C@@H](C)[C@@H](OC(C)=O)[C@H](C)[C@H](O)[C@H](C)[C@@H](O)[C@@H](C)/C=C/C=C(/C)C(=O)N2)O5)CC1,18 strains,3.13 µg/mL
CN1CCN(CCCN=c2cc3n(-c4ccc(Cl)cc4)c4ccccc4nc-3cc2Nc2ccccc2)CC1,10 srtains,3.3 µg/mL
CC[C@H]1OC(=O)[C@H](C)[C@@H](O[C@H]2C[C@@](C)(OC)[C@@H](O)[C@H](C)O2)[C@H](C)[C@@H](O[C@@H]2O[C@H](C)C[C@H](N(C)C)[C@H]2O)[C@](C)(OC)C[C@@H](C)C(=O)[C@H](C)[C@@H](O)[C@]1(C)O,32 isolates,2 µg/mL
CC[C@@H](C)N1CCN(c2cc(=O)c3nc4c(oc3c2)c2c(=O)c3c(O)c(C)c5c(c34)=C(O)[C@@](C)(O/C=C/[C@H](OC)[C@@H](C)[C@@H](OC(C)=O)[C@H](C)[C@H](O)[C@H](C)[C@@H](O)[C@@H](C)/C=C/C=C(/C)C(=O)N2)O5)CC1,18 strains,3.13 µg/mL
CN[C@@H]1[C@H](O[C@H]2[C@H](O[C@H]3[C@H](O)[C@@H](O)[C@H](N=C(N)N)[C@@H](O)[C@@H]3N=C(N)N)O[C@@H](C)[C@]2(O)C=O)O[C@@H](CO)[C@H](O)[C@H]1O,,3.85 µg/mL
CCCCCCCCCCCCOC(=O)c1cc(O)c(O)c(O)c1,32 isolates,>128 µg/mL
CO[C@H]1/C=C/O[C@@]2(C)Oc3c(C)c(O)c4c(O)c(c(/C=N/N5CCN(C)CC5)c(O)c4c3C2=O)NC(=O)/C(C)=C\C=C\[C@H](C)[C@H](O)[C@@H](C)[C@@H](O)[C@@H](C)[C@H](OC(C)=O)[C@@H]1C,52 isolates,50 µg/mL

A second listing of 6 rows from above:

smiles,strain or isolate,value
C[C@@H]1CN(c2c(F)c(N)c3c(=O)c(C(=O)O)cn(C4CC4)c3c2F)C[C@H](C)N1,20 strains,1.56 µg/mL
NC(=O)c1cnccn1,20 strains,>1600 µg/mL
CCOc1c(N2CCC(C(C)(C)N)C2)c(F)cc2c(=O)c(C(=O)O)cn(C3CC3)c12,,8 µg/mL
CC1COc2c(C3(N)CC3)c(F)cc3c(=O)c(C(=O)O)cn1c23,16 isolates,>100 µg/mL
CC[C@H]1OC(=O)[C@H](C)[C@@H](O[C@H]2C[C@@](C)(OC)[C@@H](O)[C@H](C)O2)[C@H](C)[C@@H](O[C@@H]2O[C@H](C)C[C@H](N(C)C)[C@H]2O)[C@](C)(OC)C[C@@H](C)C(=O)[C@H](C)[C@@H](O)[C@]1(C)O,32 isolates,2 µg/mL
O=C(O)c1cn(C2CC2)c2c(F)c(N3CC4CC3CN4)c(F)cc2c1=O,,8 µg/mL